Values from PubChem BioAssay AID1224833 (University of Georgia, 2016).
Aim: 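Host factors restraining rotavirus as candidate antiviral genes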 (primary screen). Cells: monkey MA104 kidney cells. Reagent: siRNA pool against human genes, 50 nM. Time to read-out: 48 h knock-down before infection; read 24 h after infection. Challenge: infection with rotavirus strain RV3 two days after transfection; infectious dose for this stage not given. Measured: 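z-score of rotavirus antigen signal per well, from a fluorescent immunoassay, relative to non-targeting control wells on the same plate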. Reading the numbers: z-score vs non-targeting control: higher = more rotavirus replication than with non-targeting control. Hit rule: In these data the active calls have z-score vs non-targeting control at about -1 or lower, or at about 1 or higher. Calls: active = z-score beyond 1 either way; inactive = z-score within 1 of zero.
In all, the deposit lists about 12,000 reagents; below is an unselected part. About 5,600 of them (46%) were called active. 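Active calls cover z-scores past 1 in both directions, so they include lowered as well as raised rotavirus replication.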

PYGO2 (GeneID 90780) gave z-score vs non-targeting control -0.0285; inactive.
After knock-down of PSMD7 (GeneID 5713), the record shows z-score vs non-targeting control 0.921; inactive.
With knock-down of SIL1 (GeneID 64374), the screen gave z-score vs non-targeting control -1.35; active.
GAREM1 (GeneID 64762) gave z-score vs non-targeting control -0.909; inactive.
With knock-down of NAB1 (GeneID 4664) the results were z-score vs non-targeting control 0.823; inactive.
Against CITED4 (GeneID 163732) the deposit lists z-score vs non-targeting control 1.69; active.
TMEM183BP (GeneID 653659) scored z-score vs non-targeting control -1.2; active.
PMEPA1 (GeneID 56937) showed z-score vs non-targeting control -0.919; inactive.
PFDN6 (GeneID 10471) showed z-score vs non-targeting control 0.305; inactive.
Silencing of HPRT1 (GeneID 3251) came out at: z-score vs non-targeting control 1.66; active.
After knock-down of KIF26A (GeneID 26153), the screen gave z-score vs non-targeting control 0.86; inactive.
RSPO3 (GeneID 84870) gave z-score vs non-targeting control -0.311; inactive.
Silencing of USP50 (GeneID 373509) came out at: z-score vs non-targeting control 0.171; inactive.
Depletion of CCDC17 (GeneID 149483) resulted in: z-score vs non-targeting control -1.42; active.
Against BACC1 (GeneID 124944), the values are z-score vs non-targeting control 2.71; active.
Knock-down of GSTM2 (GeneID 2946) gave: z-score vs non-targeting control -1.54; active.
With knock-down of DNAH3 (GeneID 55567), the record shows z-score vs non-targeting control 1.01; active.
With knock-down of PAX6 (GeneID 5080) the results were z-score vs non-targeting control -0.898; inactive.
After knock-down of TESC (GeneID 54997) the results were z-score vs non-targeting control -1.07; active.
For LPAR6 (GeneID 10161), the values are z-score vs non-targeting control 1.75; active.
Depletion of NIFK (GeneID 84365) gave: z-score vs non-targeting control -0.937; inactive.
Knock-down of SMAD5 (GeneID 4090) gave: z-score vs non-targeting control -0.928; inactive.
Depletion of SLC25A17 (GeneID 10478) came out at: z-score vs non-targeting control 0.64; inactive.
After knock-down of TWIST1 (GeneID 7291) the results were z-score vs non-targeting control -1.41; active.
Depletion of UBXN11 (GeneID 91544) gave: z-score vs non-targeting control -1.18; active.
Depletion of LVRN (GeneID 206338) resulted in: z-score vs non-targeting control 0.482; inactive.
For LURAP1 (GeneID 541468), the values are z-score vs non-targeting control 0.0988; inactive.
After knock-down of ADORA1 (GeneID 134), the screen gave z-score vs non-targeting control -0.67; inactive.
Knock-down of SYT3 (GeneID 84258) came out at: z-score vs non-targeting control -2.14; active.
Depletion of ETFDH (GeneID 2110) gave: z-score vs non-targeting control -1.62; active.
SLCO5A1 (GeneID 81796) gave z-score vs non-targeting control 0.264; inactive.
SUCLA2 (GeneID 8803) scored z-score vs non-targeting control -0.832; inactive.
After knock-down of NRDE2 (GeneID 55051), the record shows z-score vs non-targeting control 0.84; inactive.
Against ZNF711 (GeneID 7552), the values are z-score vs non-targeting control 0.416; inactive.
Silencing of SPANXN3 (GeneID 139067) resulted in: z-score vs non-targeting control -1.77; active.
Against FMNL1 (GeneID 752), the values are z-score vs non-targeting control 0.231; inactive.
RHCG (GeneID 51458) gave z-score vs non-targeting control -1.53; active.
After knock-down of CADPS2 (GeneID 93664), the screen gave z-score vs non-targeting control 0.231; inactive.
Against NKAPL (GeneID 222698), the entry reads z-score vs non-targeting control -1.2; active.
TIE1 (GeneID 7075) showed z-score vs non-targeting control 0.328; inactive.
Against BLOC1S5 (GeneID 63915), the entry reads z-score vs non-targeting control -0.508; inactive.
Knock-down of LHFPL5 (GeneID 222662) gave: z-score vs non-targeting control 1.35; active.
Against CCNK (GeneID 8812), the entry reads z-score vs non-targeting control 0.565; inactive.
Silencing of TIFA (GeneID 92610) resulted in: z-score vs non-targeting control -0.0192; inactive.
Knock-down of DLL1 (GeneID 28514) gave: z-score vs non-targeting control -1.4; active.
PEX5 (GeneID 5830) scored z-score vs non-targeting control 0.941; inactive.
Against IFT56 (GeneID 79989), the entry reads z-score vs non-targeting control 2.13; active.
Depletion of GADD45G (GeneID 10912) gave: z-score vs non-targeting control -2.33; active.
Against JAKMIP2 (GeneID 9832), the entry reads z-score vs non-targeting control -1.01; active.
After knock-down of LMOD3 (GeneID 56203), the screen gave z-score vs non-targeting control -1.91; active.
Depletion of CLN5 (GeneID 1203) came out at: z-score vs non-targeting control -1.23; active.
Silencing of TMEM255A (GeneID 55026) gave: z-score vs non-targeting control -0.481; inactive.
C14orf119 (GeneID 55017) gave z-score vs non-targeting control 1.2; active.
With knock-down of EBF2 (GeneID 64641) the results were z-score vs non-targeting control -1.85; active.
For PRCC (GeneID 5546) the deposit lists z-score vs non-targeting control -1.04; active.
Silencing of UQCC4 (GeneID 283951) gave: z-score vs non-targeting control -1.57; active.
Depletion of RASSF8 (GeneID 11228) came out at: z-score vs non-targeting control -0.562; inactive.
For LRTOMT (GeneID 220074), the values are z-score vs non-targeting control 0.209; inactive.
Against LRRC15 (GeneID 131578) the deposit lists z-score vs non-targeting control -1.16; active.
CMTM7 (GeneID 112616) showed z-score vs non-targeting control -0.186; inactive.

Targets above whose target name starts with S or s (7):
SIL1 (GeneID 64374) — z-score vs non-targeting control = -1.35; call = active
SMAD5 (GeneID 4090) — z-score vs non-targeting control = -0.928; call = inactive
SLC25A17 (GeneID 10478) — z-score vs non-targeting control = 0.64; call = inactive
SYT3 (GeneID 84258) — z-score vs non-targeting control = -2.14; call = active
SLCO5A1 (GeneID 81796) — z-score vs non-targeting control = 0.264; call = inactive
SUCLA2 (GeneID 8803) — z-score vs non-targeting control = -0.832; call = inactive
SPANXN3 (GeneID 139067) — z-score vs non-targeting control = -1.77; call = active
